A mixed list of measured activities; the numbers were collected in NIAID ChemDB.

Shared fields: enzyme or target tests; species: Candida albicans

Rows are shuffled and stem from different studies. ICn is the concentration giving n% inhibition. Blank or dashed fields: not listed here.

SMILES,strain,target,endpoint,value
COc1ccc(OC(=O)c2csc(Cc3c(Cl)cccc3Cl)n2)cc1,,Geranylgeranyl-protein transferase I,IC50,0.02 µM
CC(=O)c1ccc(OCC(=O)N[C@@H](Cc2ccccc2)C[C@H](O)[C@H](Cc2ccccc2)NC(=O)COc2ccc(C(C)=O)cc2)cc1,H12,Aspartic protease SAP2,IC50,5 µM
CCC(C)CC(C)CCCCCCCCC(=O)N[C@H]1C[C@@H](O)[C@@H](O)NC(=O)[C@@H]2[C@@H](O)CCN2C(=O)[C@H]([C@H](O)CCN(CC#N)CC#N)NC(=O)[C@H]([C@H](O)Cc2ccc(O)cc2)NC(=O)[C@@H]2C[C@@H](O)CN2C(=O)[C@H]([C@@H](C)O)NC1=O,MY1055,Glucan synthase,IC50,>0.2 µM
COC(=O)C(CCSC)NC(=O)C1(Cc2ccccc2C)CCN(C(=O)[C@@H](N)CS)CC1,,Geranylgeranyl-protein transferase I,IC50,0.08 µM
C=C1/C=C(\C)[C@H](CC)OC(=O)[C@H](C)C(=O)C(O)(CO)C/C(OC)=C/[C@@H](C)C1,,Inositol phosphorylceramide synthase,IC50,0.00007 µM
CC[C@H](C)[C@H](NC(=O)[C@@H](Cc1ccccc1)C[C@@H](O)[C@H](Cc1ccccc1)NC(=O)OC(C)(C)C)C(=O)N[C@@H](Cc1ccccc1)C(N)=O,,Aspartic proteinase,IC50,>100 µM
O=C(COc1ccccc1)N[C@@H](Cc1ccccc1)C[C@@H](O)[C@H](Cc1ccccc1)NC(=O)COc1ccccc1,H12,Aspartic protease SAP2,IC50,>50 µM
Cc1cc(C)c2nc(-c3ccc(Br)cc3)cc(C(=O)O)c2c1,,Prolyl-tRNA synthetase,IC50,0.14 µM
CCOC(=O)c1oc2cccc(OCCCNCc3ccncc3)c2c1C,CY1002,N-myristoyltransferase,IC50,1.9 µM
CCC(C)CC(C)CCCCCCCCC(=O)N[C@H]1C[C@@H](O)[C@@H](O)NC(=O)[C@@H]2[C@@H](O)CCN2C(=O)[C@H]([C@H](O)CCNC(C)=O)NC(=O)[C@H]([C@H](O)Cc2ccc(O)cc2)NC(=O)[C@@H]2C[C@@H](O)CN2C(=O)[C@H]([C@@H](C)O)NC1=O,MY1055,Glucan synthase,IC50,0.3 µM
Cc1cccc(C)c1OCC(=O)N[C@@H](Cc1ccccc1)C[C@H](O)[C@H](Cc1ccccc1)NC(=O)[C@H](NC(=O)c1cc(=O)c2ccccc2[nH]1)C(C)C,,Secreted aspartic protease,IC50,140 µM
CC[C@H](C)[C@H](NC(=O)[C@@H](Cc1ccccc1)C[C@H](O)[C@H](Cc1ccccc1)NC(=O)OC(C)(C)C)C(=O)N[C@@H](Cc1ccccc1)C(N)=O,,Aspartic proteinase,IC50,>100 µM
NC(=O)[C@@H](Cc1cnc[nH]1)NC(=O)[C@@H](Cc1cccc2ccccc12)NC(=O)C1c2ccccc2-c2ccccc21,,Geranylgeranyltransferase,IC50,<3 µM
Cc1cccc(C)c1OCC(=O)N[C@@H](Cc1ccccc1)C[C@@H](O)[C@H](Cc1ccccc1)NC(=O)[C@@H](NC(=O)c1cc(=O)c2ccccc2[nH]1)c1cccs1,,Secreted aspartic protease,IC50,83 µM
Cc1cccc(C)c1OCC(=O)N[C@@H](Cc1ccccc1)C[C@H](O)[C@H](Cc1ccccc1)NC(=O)[C@H](NC(=O)c1cc(=O)c2ccccc2[nH]1)C(C)C,H12,Aspartic protease SAP2,IC50,>50 µM
CC(C)(C)OC(=O)N[C@@H](Cc1ccccc1)[C@H](O)C[C@H](Cc1ccccc1)C(=O)N[C@@H](CCC(N)=O)C(=O)N[C@@H](Cc1ccccc1)C(N)=O,,Aspartic proteinase,IC50,28 µM
COc1ccc2nc(NC(=O)C(=O)C(C(=O)c3ccc(-c4ccccc4)cc3)C3OC(=O)c4ccccc43)sc2c1,,Farnesyl-protein transferase,IC50,15 µM
CC(=CCC/C=C(\C)CCC=C(C)CCC[N+](C)(C)[O-])CC/C=C(\C)CCC1OC1(C)C,,Oxidosqualene cyclase (microsomal),IC50,19 µM
CC[C@H](C)[C@H](NC(=O)[C@H](Cc1ccccc1)C[C@H](O)[C@H](Cc1ccccc1)NC(=O)OC(C)(C)C)C(=O)N[C@@H](Cc1ccccc1)C(N)=O,,Aspartic proteinase,IC50,>100 µM
CN(C)Cc1ccc(-c2ccc(C(=O)c3ccc(Br)cc3)cc2)cc1,,Oxidosqualene cyclase,IC50,0.1 µM
CC(C)(C)OC(=O)N[C@@H](Cc1ccccc1)[C@H](O)C[C@@H](Cc1ccccc1)C(=O)N[C@@H](CCC(=O)O)C(=O)N[C@@H](Cc1ccccc1)C(N)=O,,Aspartic proteinase,IC50,>100 µM
CCCC(N)C(=O)NC(CNC(=O)/C=C/C(=O)OC)C(=O)O,,Glucosamine-6-phosphate synthetase,IC50,241 µM
O=Cc1ccc(OCC(=O)N[C@@H](Cc2ccccc2)C[C@@H](O)[C@H](Cc2ccccc2)NC(=O)COc2ccc(C=O)cc2)cc1,H12,Aspartic protease SAP2,IC50,30 µM
CC(C)C(=O)[O-],Nce103,Beta-carbonic anhydrase,Ki,0.98 µM
CC[C@H](C)[C@H](NC(=O)[C@H](Cc1ccccc1)C[C@@H](O)[C@H](Cc1ccccc1)NC(=O)OC(C)(C)C)C(=O)N[C@@H](Cc1ccccc1)C(N)=O,,Aspartic proteinase,IC50,>100 µM
O=C(COc1ccccc1O)N[C@@H](Cc1ccccc1)C[C@H](O)[C@H](Cc1ccccc1)NC(=O)COc1ccccc1O,H12,Aspartic protease SAP2,IC50,25 µM

A second listing of 3 rows from above:

SMILES	strain	target	endpoint	value
CC[C@H](C)[C@H](NC(=O)[C@@H](Cc1ccccc1)C[C@H](O)[C@H](Cc1ccccc1)NC(=O)OC(C)(C)C)C(=O)N[C@@H](Cc1ccccc1)C(N)=O		Aspartic proteinase	IC50	>100 µM
NC(=O)[C@@H](Cc1cnc[nH]1)NC(=O)[C@@H](Cc1cccc2ccccc12)NC(=O)C1c2ccccc2-c2ccccc21		Geranylgeranyltransferase	IC50	<3 µM
CC[C@H](C)[C@H](NC(=O)[C@H](Cc1ccccc1)C[C@@H](O)[C@H](Cc1ccccc1)NC(=O)OC(C)(C)C)C(=O)N[C@@H](Cc1ccccc1)C(N)=O		Aspartic proteinase	IC50	>100 µM